Measured values from several laboratories, pooled; numbers as filed in NIAID ChemDB.

Common to all: tests in culture; species: HIV-1; method: cytopathic effect / XTT; read-out: EC50

ECn: concentration that inhibits the pathogen or its effect by n%. An empty or dashed field is not shown. Neighbouring rows are from separate reports. a–b is a range or a potency band.

SMILES | strain or isolate | cells | mutations | result
CC(=O)COc1cc(NC(=S)OC(C)C)ccc1Cl | NL4-3 | CEM + CEM-SS |  | 0.05 µM
COc1cc(-c2ccc(N=Nc3ccc4c(S(=O)(=O)O)cc(S(=O)(=O)O)c(N)c4c3O)c(OC)c2)ccc1N=Nc1ccc2c(S(=O)(=O)O)cc(S(=O)(=O)O)c(N)c2c1O | ED | CEM + CEM-SS |  | 0.5 µM
CC(C)OC(=S)Nc1ccc(Cl)c(/C=N/OC(C)(C)C)c1 | IIIB | CEM + CEM-SS |  | 0.4 µM
COc1cc(-c2ccc(N=Nc3ccc4c(S(=O)(=O)O)cc(S(=O)(=O)O)c(N)c4c3O)c(OC)c2)ccc1N=Nc1ccc2c(S(=O)(=O)O)cc(S(=O)(=O)O)c(N)c2c1O | G762-3 | CEM + CEM-SS |  | 2.5 µM
CC[C@@H](C)[C@@H](NC(=O)c1ccccc1SSc1ccccc1C(=O)N[C@@H](C(=O)O)[C@H](C)CC)C(=O)O |  | CEM |  | 6.3 µM
Nc1ccc2cc(S(=O)(=O)O)cc(O)c2c1N=Nc1ccc(NC(=O)Nc2ccc(N=Nc3c(N)ccc4cc(S(=O)(=O)O)cc(O)c34)c(S(=O)(=O)O)c2)cc1S(=O)(=O)O | RF | CEM + CEM-SS |  | 10 µM
CC(=O)c1ccc(NC(=O)c2ccccc2SSc2ccccc2C(=O)Nc2ccc(C(C)=O)cc2)cc1 |  | CEM |  | 19 µM
Cn1cc(NC(=O)Nc2cc(C(=O)Nc3cc(C(=O)Nc4cc(S(=O)(=O)O)c5cc(S(=O)(=O)O)cc(S(=O)(=O)O)c5c4)n(C)c3)n(C)c2)cc1C(=O)Nc1cc(C(=O)Nc2cc(S(=O)(=O)O)c3cc(S(=O)(=O)O)cc(S(=O)(=O)O)c3c2)n(C)c1 | BaL | PBMC |  | 0.4 µM
CC(C)=CCOc1cc(NC(=S)c2ccoc2C)ccc1Cl | Costatolide-resistant (RT Y188H) | CEM + CEM-SS | RT-Y188H | 0.1 µM
Cc1occc1C(=S)Nc1ccc(Cl)c(/C=N/OC(C)(C)C)c1 | NL4-3 | CEM + CEM-SS | RT-Y181C | 0.5 µM
CCCCCCCCCCCCCCCCNc1ccn([C@H]2C[C@H](OP(=O)(O)OC[C@@H]3CC[C@H](n4ccc(N)nc4=O)O3)[C@@H](CO)O2)c(=O)n1 |  | CEM + CEM-SS |  | 1.39 µM
Cc1occc1C(=S)Nc1ccc(Cl)c(C(=O)OC(C)C)c1 | RF | CEM + CEM-SS |  | 0.026 µM
Cn1cc(NC(=O)Nc2cc(C(=O)Nc3cc(C(=O)Nc4cc(C(=O)Nc5ccc(P(=O)(O)O)c6cc(P(=O)(O)O)ccc56)n(C)c4)n(C)c3)n(C)c2)cc1C(=O)Nc1cc(C(=O)Nc2cc(C(=O)Nc3ccc(P(=O)(O)O)c4cc(P(=O)(O)O)ccc34)n(C)c2)n(C)c1 | RF | CEM + CEM-SS |  | 1.4 µM
Cc1ccsc1C(=S)Nc1ccc(Cl)c(/C=N/OC(C)(C)C)c1 | RF | CEM + CEM-SS |  | 0.083 µM
O=C(c1ccccc1SSc1ccccc1C(=O)N1CCCCC1)N1CCCCC1 |  | CEM |  | 21 µM
CCCCCCCCCCCCCCCC(=O)Nc1ccn([C@H]2CC[C@@H](COP(=O)(O)O[C@H]3C[C@H](n4cc(C)c(=O)[nH]c4=O)O[C@@H]3CO)O2)c(=O)n1 | DPS-resistant (RT-Y181C) | CEM + CEM-SS | Diphenyl sulfone-resistant (RT-Y181C) | 0.0294 µM
CCCc1cc(=O)oc2c3c(c4c(c12)OC(C)(C)CC4)O[C@H](C)[C@@H](C)C3=O |  |  | RT-T139I | >100 µM
Cn1cc(NC(=O)Nc2cc(C(=O)Nc3cc(C(=O)Nc4ccc(S(=O)(=O)O)c5cc(S(=O)(=O)O)ccc45)n(C)c3)n(C)c2)cc1C(=O)Nc1cc(C(=O)Nc2ccc(S(=O)(=O)O)c3cc(S(=O)(=O)O)ccc23)n(C)c1 | RF | CEM + CEM-SS |  | 12.3 µM
CN(C)C1=C(C#N)/C(=C2/C(C#N)=C(N(C)C)N(c3ccc([N+](=O)[O-])cc3)c3c2n(C)c2ccccc32)c2c(c3ccccc3n2C)N1c1ccc([N+](=O)[O-])cc1 | Calanolide-resistant (RT T139I) | CEM + CEM-SS | RT-T139I | 1.1–1.14 µM
CS(=O)(=O)c1ccc(NC(=O)c2ccccc2SSc2ccccc2C(=O)Nc2ccc(S(C)(=O)=O)cc2)cc1 |  | CEM |  | 14 µM
CC(C)=CCOc1cc(NC(=S)c2ccsc2C)ccc1Cl | BaL | MAC |  | 0.008 µM
O=C(c1ccccc1SSc1ccccc1C(=O)N1CCCC1)N1CCCC1 |  | CEM |  | >25 µM
Cn1cc(NC(=O)Nc2cc(C(=O)Nc3cc(C(=O)Nc4ccc(S(=O)(=O)O)c5cc(S(=O)(=O)O)ccc45)n(C)c3)n(C)c2)cc1C(=O)Nc1cc(C(=O)Nc2ccc(S(=O)(=O)O)c3cc(S(=O)(=O)O)ccc23)n(C)c1 | 6R(AZT) | MT-4 |  | 7.2 µM
Cn1cc(NC(=O)Nc2cc(C(=O)Nc3cc(C(=O)Nc4ccc(P(=O)(O)O)c5cc(P(=O)(O)O)ccc45)n(C)c3)n(C)c2)cc1C(=O)Nc1cc(C(=O)Nc2ccc(P(=O)(O)O)c3cc(P(=O)(O)O)ccc23)n(C)c1 | G691-2 | CEM + CEM-SS |  | 35 µM
CCCCCCCCCCCCNC(=O)c1ccccc1SSc1ccccc1C(=O)NCCCCCCCCCCCC |  | CEM |  | 16 µM
Cn1nc(NC(=O)c2cc(NC(=O)Nc3cc(C(=O)Nc4cc(C(=O)Nc5ccc6cc(S(=O)(=O)O)cc(S(=O)(=O)O)c6c5)n(C)n4)n(C)n3)nn2C)cc1C(=O)Nc1ccc2cc(S(=O)(=O)O)cc(S(=O)(=O)O)c2c1 | RF | CEM + CEM-SS |  | 7.5 µM
Cc1occc1C(=S)Nc1ccc(Cl)c(C(=O)OCC(F)(F)F)c1 | RF | CEM + CEM-SS |  | 0.011 µM
Cn1cc(N)cc1C(=O)Nc1cc(C(=O)Nc2cc(S(=O)(=O)O)c3cc(S(=O)(=O)O)cc(S(=O)(=O)O)c3c2)n(C)c1 | RF | CEM + CEM-SS |  | 155.7 µM
C=CCO/N=C/c1cc(NC(=S)c2ccoc2C)ccc1Cl | NL4-3 | CEM + CEM-SS | RT-L100I | 1.3 µM